PubChem BioAssay AID624099 | ICCB-Longwood – 2012

- Screen: 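Host factors E2 relies on to silence an HPV18 LCR reporter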 (primary screen)
- System: human C33A cervical carcinoma cells (HPV-negative) stably expressing BPV1 E2 and an HPV18 LCR luciferase reporter
- Knock-down reagent: siRNA pool against human genes, 40 nM
- Time to read-out: 72 h
- Measurement: 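HPV18 LCR reporter light per well, converted to plate-wise z-scores that exclude control wells, and averaged over triplicate plates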
- Reading the numbers: mean z-score and z-score: higher = stronger reporter signal, weaker E2 silencing
- Active means: 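Mean z ≥ 2 together with z ≥ 2 in two or more of the three replicates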
This is one part, drawn at random, of about 21,000 reagents. Over the whole deposit, 497 (2.4%) are marked active. 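Higher z means weaker E2 silencing; only reporter increases were scored, and knock-downs that hurt cell survival may mask genuine repressor factors.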 Reagents against one gene are numbered here.

no.	gene symbol	pool no.	mean z-score	z-score, replicate A	z-score, replicate B	z-score, replicate C	Call
1	MED13L (GeneID 23389)	1	-1.73	-1.63	-1.73	-1.84	inactive
2	TMEM50B (GeneID 757)	1	2.01	2.25	1.83	1.96	inactive
3	DGAT1 (GeneID 8694)	1	-0.93	-0.54	-1.05	-1.21	inactive
4	FAM86C1P (GeneID 55199)	1	0.54	0.75	0.69	0.17	inactive
5	MRPL52 (GeneID 122704)	1	-0.58	-0.55	-0.98	-0.22	inactive
6	PRRG4 (GeneID 79056)	1	1.29	1.14	1.37	1.36	inactive
7	AHR (GeneID 196)	1	-0.02	-0.05	0.07	-0.09	inactive
8	TMEM201 (GeneID 199953)	1	1.89	1.92	2.3	1.45	inactive
9	ANKRD40CL (GeneID 55018)	1	-1.07	-0.28	-0.88	-2.03	inactive
10	METRN (GeneID 79006)	1	0.1	-0.22	0.47	0.06	inactive
11	MOSPD2 (GeneID 158747)	1	-0.7	-1	-0.41		inactive
12	PXMP2 (GeneID 5827)	1	-0.99	-1	-0.89	-1.09	inactive
13	TMPRSS11A (GeneID 339967)	1	0.37	0.36	0.35	0.4	inactive
14	AKT1 (GeneID 207)	1	0.91	0.9	0.53	1.31	inactive
15	SLC39A4 (GeneID 55630)	1	0.31	0.19	0.32	0.4	inactive
16	SNUPN (GeneID 10073)	1	2.26	1.86	2.12	2.8	active
17	DAZ2 (GeneID 57055)	1	0.06	0.01	0.1	0.06	inactive
18	TAAR2 (GeneID 9287)	1	-1.16	-1.31	-1.26	-0.9	inactive
19	GABPA (GeneID 2551)	1	0.05	0.31		-0.21	inactive
20	TMEM65 (GeneID 157378)	1	1.49	1.15	1.6	1.72	inactive
21	MARCHF3 (GeneID 115123)	1	-0.88	-1.17	-0.8	-0.65	inactive
22	NOL7 (GeneID 51406)	1	-0.71	-0.29	-0.71	-1.13	inactive
23	TNFSF13B (GeneID 10673)	1	-0.51	-0.44	-0.56	-0.54	inactive
24	TAF3 (GeneID 83860)	1	-2.14	-2.4	-2.06	-1.95	inactive
25	MYOM3 (GeneID 127294)	1	1.23	1.31	1.49	0.89	inactive
26	DICER1 (GeneID 23405)	1	-1.04	-1	-1.13	-0.98	inactive
27	KCND1 (GeneID 3750)	1	-0.43	-0.25	-0.43	-0.61	inactive
28	KLF4 (GeneID 9314)	1	0.17	0.04	0.33	0.15	inactive
29	SLC30A9 (GeneID 10463)	1	0.62	0.99	0.47	0.39	inactive
30	LINC00517 (GeneID 400208)	1	1.93	2.2	1.8	1.78	inactive
31	CDC14A (GeneID 8556)	1	0.34	0.04	0.57	0.43	inactive
32	AKR1E2 (GeneID 83592)	1	0.91	0.98	0.86	0.87	inactive
33	POLI (GeneID 11201)	1	1.42	1.53	1.65	1.08	inactive
34	TPSD1 (GeneID 23430)	1	-0.26	-0.38	-0.26	-0.14	inactive
35	SLC26A8 (GeneID 116369)	1	0.88	1.03	0.52	1.09	inactive
36	LYAR (GeneID 55646)	1	-1.1	-0.84	-1.27	-1.2	inactive
37	LOXL4 (GeneID 84171)	1	-0.18	-0.45	-0.01	-0.08	inactive
38	LOC143158 (retired record) (GeneID 143158)	1	-1.03	-1.21	-1.48	-0.38	inactive
39	CD101 (GeneID 9398)	1	0.79	0.73	0.79	0.84	inactive
40	UCHL5 (GeneID 51377)	1	-1.12	-1.13	-0.9	-1.35	inactive
41	CBR3 (GeneID 874)	1	-0.12	-0.14	-0.12	-0.1	inactive
42	SNRPB (GeneID 6628)	1	-0.9	-0.89	-0.83	-0.98	inactive
43	NUP50 (GeneID 10762)	1	1.17	1.09	1.27	1.16	inactive
44	SPAG9 (GeneID 9043)	1	0.79	0.55	0.82	1	inactive
45	HBEGF (GeneID 1839)	1	-0.95	-0.83	-1.01	-1.02	inactive
46	LOC285711 (retired record) (GeneID 285711)	1	1.08	1.05	0.8	1.39	inactive
47	OR7E31P (GeneID 375601)	1	-0.47	-0.49	-0.61	-0.32	inactive
48	TUG1 (GeneID 55000)	1	0.58	0.4	0.67	0.67	inactive
49	INPP1 (GeneID 3628)	1	-0.04	0.06	0.08	-0.25	inactive
50	CXXC1P1 (GeneID 392459)	1	0.09	0.01	0.18	0.07	inactive
51	LOC389248 (retired record) (GeneID 389248)	1	0	-0.17	0.01	0.16	inactive
52	VANGL1 (GeneID 81839)	1	2.06	2.29	1.98	1.92	inactive
53	FCMR (GeneID 9214)	1	-0.04	0.02	-0.16	0.02	inactive
54	APEH (GeneID 327)	1	-0.17	-0.03	-0.48	0	inactive
55	PCCB (GeneID 5096)	1	2.12	2.27	1.83	2.26	active
56	LOC401883 (retired record) (GeneID 401883)	1	-1.29	-1.43	-1.04	-1.4	inactive
57	NPLOC4 (GeneID 55666)	1	0.46	0.85	0.45	0.06	inactive
58	NAA80 (GeneID 24142)	1	-0.29	-0.22	0.04	-0.69	inactive
59	TRIM73 (GeneID 375593)	1	0.38	0.5	0.17	0.48	inactive
60	TRIM73 (GeneID 375593)	2	-1.29	-1.32	-1.31	-1.25	inactive
61	HGF (GeneID 3082)	1	0.09	0.28	-0.07	0.06	inactive
62	CFHR4 (GeneID 10877)	1	1.19	0.85	1.29	1.42	inactive
63	LOC401188 (retired record) (GeneID 401188)	1	0.79	0.36	0.98	1.03	inactive
64	HMCN2 (GeneID 256158)	1	0.43	0.58	0.33	0.37	inactive
65	HMCN2 (GeneID 256158)	2	1.07	0.84	1.21	1.15	inactive
66	HMCN2 (GeneID 256158)	3	0.36	0.48	-0.05	0.63	inactive
67	GUCY2F (GeneID 2986)	1	-0.34	-0.41	-0.17	-0.45	inactive
68	SMAD6 (GeneID 4091)	1	1.81	1.56	2.06	1.81	inactive
69	ZNF519 (GeneID 162655)	1	-0.13	-0.26	-0.17	0.04	inactive
70	KLHDC1 (GeneID 122773)	1	-0.31	-0.45	-0.04	-0.44	inactive
71	ERICH6 (GeneID 131831)	1	-1.17	-1.27	-1.45	-0.78	inactive
72	TSBP1 (GeneID 10665)	1	0.71	0.68	0.53	0.91	inactive
73	RCCD1 (GeneID 91433)	1	0.66	0.78	0.93	0.27	inactive

Entries listed so far with an active call, once more:
gene symbol	pool no.	mean z-score	z-score, replicate A	z-score, replicate B	z-score, replicate C	Call
SNUPN (GeneID 10073)	1	2.26	1.86	2.12	2.8	active
PCCB (GeneID 5096)	1	2.12	2.27	1.83	2.26	active
